Compound potency records, mixed from different reports. Data source: NIAID ChemDB in PubChem.

Common to all: growth or infection tests; organism: Candida albicans

ECn is the concentration giving n% inhibition of infection, replication or growth. Conditions beyond the fields shown may differ between rows. An empty or dashed field is not shown. A number after MIC or MFC names an inhibition level or a share of isolates.

smiles | strain or isolate | setting | method | read-out | result
CC(C)(C)c1ccc(COC(Cn2ccnc2)c2ccccc2)cc1 | PR1 | - | - | MIC | 128 µg/mL
CCCCCOc1ccc(-c2ccc(-c3ccc(C(=O)N[C@H]4CCCNC(=O)C5C[C@H](NC(=O)NCCC(C)C)CN5C(=O)C(C(C)O)NC(=O)C(CCc5ccc(O)cc5)NC(=O)C5C[C@@H](O)CN5C(=O)C(C(C)O)NC4=O)cc3)cc2)cc1 | ATCC CCH442 | - | - | MIC | 12.5 µg/mL
CCOc1cc2c(cc1F)n([O-])c(C)c(Cl)[n+]2=O | Clinical isolate 18 | - | - | MIC | 7.8 µg/mL
Clc1ccccc1C(c1ccccc1)(c1ccccc1)n1ccnc1 | 10 isolates | pH 4 | broth dilution | EC90 | 0.5 µg/mL
C=CCSS(=O)CC=C | Clinical Isolate 3071 | - | broth dilution | MIC90 | 6.25 µg/mL
COC(=O)[C@H]1[C@@H]2C[C@@H](O[C@@H]3O[C@H](C)[C@@H](O)[C@H](N)[C@@H]3O)/C=C/C=C/C=C/C=C/C=C/C=C/C=C/[C@H](C)[C@@H](O)[C@H](C)[C@H](C)OC(=O)C[C@H](O)C[C@H](O)[C@@H](O)CC[C@H](O)C[C@H](O)C[C@](O)(C[C@@H]1O)O2 | 15 isolates | pH 7 | broth dilution | EC90 | 0.5 µg/mL
C[C@@H](n1cnc2c(Cl)cccc2c1=O)[C@](O)(Cn1cncn1)c1ccc(F)cc1F | 60 strains | - | - | MIC | 0.15 µg/mL
C[C@@H](N1CCN(Cc2cn(Cc3ccc(F)cc3F)c3ccccc23)CC1)[C@](O)(Cn1cncn1)c1ccc(F)cc1F | ATCC MYA-1003 | - | resazurin | MIC80 | 8 µg/mL
CCCCCCCOc1ccc(N2CCN(c3ccc(C(=O)N[C@H]4CCCNC(=O)[C@@H]5C[C@H](N)CN5C(=O)[C@H]([C@@H](C)O)NC(=O)[C@H](CCc5ccc(N)cc5)NC(=O)[C@@H]5CCCN5C(=O)[C@H]([C@@H](C)O)NC4=O)cc3)CC2)cc1 | ATCC 62376 | - | - | MIC | 0.2 µg/mL
C[C@@H](n1cnc2cc(OCC(F)(F)C(F)F)ccc2c1=O)[C@](O)(Cn1cncn1)c1ccc(F)cc1F | 76 strains | - | - | MIC | 0.07 µg/mL
Fc1ccc(COc2ccc(C(c3ccc(-c4ccccc4)cc3)n3ccnc3)cc2)cc1.O=[N+]([O-])O | 17 strains | - | - | Mean MIC | ≥256 µg/mL
Clc1ccc(C(Cn2ccnc2)OC/C=C/c2ccccc2)c(Cl)c1 | CA7 | - | - | MIC | 8 µg/mL
CC(O)Cn1cc(CN2CCN([C@H](C)[C@](O)(Cn3cncn3)c3ccc(F)cc3F)CC2)c2cccc(Cl)c21 | ATCC 36082 | - | resazurin | MIC80 | 1 µg/mL
CCCCCCCCN[C@H]1C[C@H]2C(=O)NCCC[C@H](NC(=O)c3ccc(-c4ccc(-c5ccc(OCCCCC)cc5)cc4)cc3)C(=O)N[C@@H]([C@@H](C)O)C(=O)N3C[C@H](O)C[C@H]3C(=O)N[C@@H](CCc3ccc(O)cc3)C(=O)N[C@@H]([C@@H](C)O)C(=O)N2C1 | ATCC 10231 | - | - | MIC | 6.25 µg/mL
Clc1ccc(COc2ccc(C(c3ccc(-c4ccccc4)cc3)n3ccnc3)cc2)cc1.O=[N+]([O-])O | 16 strains | - | - | Mean MIC | ≥256 µg/mL
CCCCCC(CCCCC)c1ccc(N2CCN(c3ccc(C(=O)N[C@H]4CCCNC(=O)C5C[C@H](N)CN5C(=O)C(C(C)O)NC(=O)C(CCc5ccc(O)cc5)NC(=O)C5C[C@@H](O)CN5C(=O)C(C(C)O)NC4=O)cc3)CC2)cc1 | ATCC 10231 | - | - | MIC | 0.78 µg/mL
CCCCCOc1ccc(-c2ccc(-c3ccc(C(=O)N[C@H]4CCCNC(=O)[C@@H]5C[C@H](N)CN5C(=O)[C@H](Cc5ccc(O)cc5)NC(=O)C(CCc5ccc(O)cc5)NC(=O)[C@@H]5C[C@@H](O)CN5C(=O)[C@H]([C@@H](C)O)NC4=O)cc3)cc2)cc1 | ATCC 62376 | - | - | MIC | 1.56 µg/mL
Cc1ccc(C(Cn2ccnc2)OCc2cccc3ccccc23)cc1 | CA12 | - | - | MIC | >128 µg/mL
CCCCCOc1ccc(-c2ccc(-c3ccc(C(=O)N[C@H]4CCCNC(=O)[C@@H]5C[C@H](N)CN5C(=O)C(C)(C)NC(=O)C(CCc5ccc(O)cc5)NC(=O)[C@@H]5C[C@@H](O)CN5C(=O)[C@H]([C@@H](C)O)NC4=O)cc3)cc2)cc1 | ATCC 38247 | - | - | MIC | 25 µg/mL
Clc1ccc(C(Cn2ccnc2)OCc2cccc3ccccc23)c(Cl)c1 | PR1 | - | - | MIC | 2 µg/mL
CCCCCOc1ccc(-c2ccc(-c3ccc(C(=O)N[C@H]4CCCNC(=O)[C@@H]5C[C@H](NC(=O)c6ccccc6)CN5C(=O)[C@H]([C@@H](C)O)NC(=O)[C@H](CCc5ccc(O)cc5)NC(=O)[C@@H]5C[C@@H](O)CN5C(=O)[C@H]([C@@H](C)O)NC4=O)cc3)cc2)cc1 | ATCC 62376 | - | - | MIC | 6.25 µg/mL
OC(CN1CCN(c2ccc(OCc3ccncc3)cc2)CC1)(Cn1cncn1)c1ccc(F)cc1F | 4 | - | - | MIC80 | ≤0.031 µg/mL
Fc1ccccc1COc1ccc(C(c2nccc3ccccc23)n2ccnc2)cc1 | 16 strains | - | - | Mean MIC | ≥256 µg/mL
C[C@@H](n1cnc2cc(Br)ccc2c1=O)[C@](O)(Cn1cncn1)c1ccc(F)cc1F | 76 strains | - | - | MIC | 0.15 µg/mL
CC(=O)N1CCN(c2ccc(OC[C@H]3CO[C@](Cn4ccnc4)(c4ccc(Cl)cc4Cl)O3)cc2)CC1 | 50 isolates | - | - | MIC50 | 0.01 µg/mL
C[C@@H](n1cnc2cc(N)c(F)cc2c1=O)[C@](O)(Cn1cncn1)c1ccc(F)cc1F | 60 strains | - | - | MIC | 5 µg/mL
C[C@@H](c1ncncc1F)[C@](O)(Cn1cncn1)c1ccc(F)cc1F | Isolate 98-210 | - | - | MIC | 0.03 µg/mL
CCCCCCCCOc1ccc(N2CCN(c3ccc(C(=O)N[C@H]4CCCNC(=O)[C@@H]5C[C@H](N)CN5C(=O)[C@H](CCN)NC(=O)[C@H](CCc5ccc(O)cc5)NC(=O)[C@@H]5C[C@@H](O)CN5C(=O)[C@H]([C@@H](C)O)NC4=O)cc3)CC2)cc1 | ATCC 38247 | - | - | MIC | 0.39 µg/mL
CCC(C)c1ccc(Cn2cc(CN3CCN([C@H](C)[C@](O)(Cn4cncn4)c4ccc(F)cc4F)CC3)c3ccccc32)cc1 | ATCC MYA-1003 | - | resazurin | MIC80 | 32 µg/mL
C[C@H]1[C@H](O)[C@@H](C)/C=C/C=C/C=C/C=C/C=C/C=C/C=C/[C@H](O[C@@H]2O[C@H](C)[C@@H](O)[C@H](N)[C@@H]2O)C[C@@H]2O[C@](O)(C[C@@H](O)C[C@@H](O)CC[C@H](O)[C@@H](O)C[C@@H](O)CC(=O)O[C@H]1C)C[C@H](O)[C@H]2C(=O)O | 19 strains | - | - | MIC90 | 1 µg/mL
C[N+](C)(COC1CCCCC1)Cc1cc(N=Nc2ccc(Cl)cc2)ccc1O | - | - | - | MIC | 71 µM
COC(/C=C/c1ccccc1)=C1/C(=O)C=C(C)C1=O | Isolate 17 | - | - | MIC50 | 0.3 µg/mL
Nc1[nH]c(=O)ncc1F | 15 isolates | pH 4 | broth dilution | EC90 | 0.25 µg/mL
Cc1ccc(C(Cn2ccnc2)OCc2ccc(-c3ccccc3)cc2)cc1 | CDCB385 | - | - | MIC | 128 µg/mL
CC(C)(O)c1cn(-c2ccc(Cl)cc2)nn1 | URM 4820 | - | broth dilution | MIC | 256 µg/mL
CCC(C)n1ncn(-c2ccc(N3CCN(c4ccc(OC[C@H]5CO[C@](Cn6cncn6)(c6ccc(Cl)cc6Cl)O5)cc4)CC3)cc2)c1=O | Fluconazole-resistant 4 isolates pooled | - | - | MIC90 | >8 µg/mL
CC(=O)N1CCN(c2ccc(OC[C@H]3CO[C@](Cn4ccnc4)(c4ccc(Cl)cc4Cl)O3)cc2)CC1 | 10 isolates | pH 6 | broth dilution | EC90 | 0.25 µg/mL
Clc1ccc(C(Cn2ccnc2)OCc2ccc(-c3ccccc3)cc2)c(Cl)c1 | CDCB385 | - | - | MIC | 64 µg/mL
CCCCCOc1ccc(-c2ccc(-c3ccc(C(=O)N[C@H]4CCCNC(=O)C5C[C@H](NCC(=O)O)CN5C(=O)C(C(C)O)NC(=O)C(CCc5ccc(O)cc5)NC(=O)C5C[C@@H](O)CN5C(=O)C(C(C)O)NC4=O)cc3)cc2)cc1 | ATCC 10231 | - | - | MIC | 0.39 µg/mL
Clc1ccccc1COc1ccc(C(c2cccc3ccccc23)n2ccnc2)cc1.O=[N+]([O-])O | 17 strains | - | - | Mean MIC | ≥256 µg/mL
O=[n+]1c(Sc2ccccc2)c(CBr)n([O-])c2ccccc21 | Clinical isolate 4 | - | - | MIC | 15.6 µg/mL
Clc1ccc(C(Cn2ccnc2)OCc2ccc(-c3ccccc3)cc2)cc1 | CA7 | - | - | MIC | 128 µg/mL
CCC(C)CC(C)CCCCCCCCC(=O)N[C@H]1C[C@@H](O)[C@@H](OCCN)NC(=O)[C@@H]2[C@@H](O)CCN2C(=O)[C@H]([C@@H](O)CCN)NC(=O)[C@H]([C@H](O)[C@@H](O)c2ccc(O)cc2)NC(=O)[C@@H]2C[C@@H](O)CN2C(=O)[C@H]([C@H](C)O)NC1=O | ATCC 64548 | - | - | MIC | ≤0.007 µg/mL
C[C@H](n1cnc2cc(Cl)ccc2c1=O)[C@](O)(Cn1cncn1)c1ccc(F)cc1F | 76 strains | - | - | MIC | 5 µg/mL
C[C@@H](N1CCN(Cc2cn(Cc3ccc(C(F)(F)F)cc3)c3ccccc23)CC1)[C@](O)(Cn1cncn1)c1ccc(F)cc1F | ATCC 90028 | - | resazurin | MIC80 | 0.125 µg/mL
Cc1ccc(C(Cn2ccnc2)OC/C=C/c2ccccc2)cc1 | CA7 | - | - | MIC | 128 µg/mL
C[C@@H](N1CCN(Cc2cn(Cc3cccc(C(F)(F)F)c3)c3ccccc23)CC1)[C@](O)(Cn1cncn1)c1ccc(F)cc1F | ATCC 36082 | - | resazurin | MIC80 | 0.125 µg/mL
Cc1c(Cl)[n+](=O)c2cc(Cl)ccc2n1[O-] | Clinical isolate 5 | - | - | MIC | 7.8 µg/mL
CCCCCCCCCCCCOC[N+](C)(C)Cc1cc(N=Nc2ccc(C)cc2)ccc1O | - | - | - | MBC | 1986 µM
CCOc1cc2c(cc1F)n([O-])c(C)c(S(=O)(=O)c1ccccc1)[n+]2=O | Clinical isolate 9 | - | - | MIC | 15.6 µg/mL
C[C@@H](n1cnc2cc(NC(=O)C(F)(F)F)c(F)cc2c1=O)[C@](O)(Cn1cncn1)c1ccc(F)cc1F | 406 strains | - | - | MIC | 5 µg/mL
Clc1cccc(C(c2nccc3ccccc23)n2ccnc2)c1.O=[N+]([O-])O | 44 strains | - | - | MIC90 | 256 µg/mL
Cc1cc(C)c2ncn([C@H](C)[C@](O)(Cn3cncn3)c3ccc(F)cc3F)c(=O)c2c1 | 76 strains | - | - | MIC | 10 µg/mL
CCCCCOc1ccc(-c2ccc(-c3ccc(C(=O)N[C@H]4CCCNC(=O)[C@@H]5C[C@H](N)CN5C(=O)[C@H](CO)NC(=O)C(CCc5ccc(O)cc5)NC(=O)[C@@H]5C[C@@H](O)CN5C(=O)[C@H]([C@@H](C)O)NC4=O)cc3)cc2)cc1 | ATCC 62376 | - | - | MIC | 0.1 µg/mL
Cc1c(O)cccc1C(=O)N[C@@H](CSc1ccccc1)[C@H](O)CN1C[C@H]2CCCC[C@H]2C[C@H]1C(=O)NC(C)(C)C | I14A | - | - | MIC | 64 µg/mL
C[N+](C)(COC1CCCC1)Cc1cc(N=Nc2ccc(Cl)cc2)ccc1O | - | - | - | MBC | 146 µM
Cc1nc2cc(Cl)ccc2c(=O)n1[C@H](C)[C@](O)(Cn1cncn1)c1ccc(F)cc1F | 76 strains | - | - | MIC | 10 µg/mL
NC(=NC1CCCC1)c1ccc(-c2ccc(-c3ccc(C(N)=NC4CCCC4)cc3)o2)cc1 | A39 | - | - | MFC | 25 µg/mL
[2H]c1ccc(COC[C@@H]2NC(=O)[C@@H]3C[C@@H](O)CN3C(=O)[C@H]([C@@H](C)O)NC(=O)[C@@H](NC(=O)c3ccc(-c4ccc(-c5ccc(OCCCCC)cc5)cc4)cc3)CCCNC(=O)[C@@H]3C[C@H](N)CN3C(=O)[C@H]([C@@H](C)O)NC2=O)cc1 | ATCC 62376 | - | - | MIC | >100 µg/mL
CCC(C)n1ncn(-c2ccc(N3CCN(c4ccc(OC[C@H]5CO[C@](Cn6cncn6)(c6ccc(Cl)cc6Cl)O5)cc4)CC3)cc2)c1=O | 50 isolates | - | - | MIC90 | 0.4 µg/mL
C[C@@H](n1cnc2cc(N3CCN(c4ccc(Cl)cc4)CC3)ccc2c1=O)[C@](O)(Cn1cncn1)c1ccc(F)cc1F | 76 strains | - | - | MIC | ≤0.03 µg/mL
CCCCCOC[N+](C)(C)Cc1cc(N=Nc2ccc(C)cc2)ccc1O | - | - | - | MIC | 152 µM

For reference, 5 entries again:

{"smiles": "CCCCCOc1ccc(-c2ccc(-c3ccc(C(=O)N[C@H]4CCCNC(=O)C5C[C@H](NCC(=O)O)CN5C(=O)C(C(C)O)NC(=O)C(CCc5ccc(O)cc5)NC(=O)C5C[C@@H](O)CN5C(=O)C(C(C)O)NC4=O)cc3)cc2)cc1", "strain or isolate": "ATCC 10231", "read-out": "MIC", "result": "0.39 µg/mL"}
{"smiles": "Clc1ccc(C(Cn2ccnc2)OC/C=C/c2ccccc2)c(Cl)c1", "strain or isolate": "CA7", "read-out": "MIC", "result": "8 µg/mL"}
{"smiles": "CCCCCCCCN[C@H]1C[C@H]2C(=O)NCCC[C@H](NC(=O)c3ccc(-c4ccc(-c5ccc(OCCCCC)cc5)cc4)cc3)C(=O)N[C@@H]([C@@H](C)O)C(=O)N3C[C@H](O)C[C@H]3C(=O)N[C@@H](CCc3ccc(O)cc3)C(=O)N[C@@H]([C@@H](C)O)C(=O)N2C1", "strain or isolate": "ATCC 10231", "read-out": "MIC", "result": "6.25 µg/mL"}
{"smiles": "Clc1ccc(C(Cn2ccnc2)OCc2ccc(-c3ccccc3)cc2)c(Cl)c1", "strain or isolate": "CDCB385", "read-out": "MIC", "result": "64 µg/mL"}
{"smiles": "CCOc1cc2c(cc1F)n([O-])c(C)c(S(=O)(=O)c1ccccc1)[n+]2=O", "strain or isolate": "Clinical isolate 9", "read-out": "MIC", "result": "15.6 µg/mL"}